In US20230248811A1:

Molecular target: SNAP-25 in human induced pluripotent stem cell derived peripheral neurons (PERI.4U) (human) (UniProt P60880)
Assay: cell-based or functional assay

Unmodified recombinant BoNT/A1
pEC50, SNAP-25 cleavage in human iPSC-derived peripheral neurons: 10.2 pEC50
